Measured values from several laboratories, pooled; numbers as filed in NIAID ChemDB.

Common to all: whole-cell or culture tests; species: Mycobacterium tuberculosis

ECn is the concentration giving n% inhibition of infection, replication or growth.

| structure | strain | cells | read by | endpoint | dose | result |
|---|---|---|---|---|---|---|
| CCN(CC)CCOc1cc(Nc2cc(C3CC3)[nH]n2)nc(-c2ccccc2)n1 | H37Rv |  | resazurin | MIC90 |  | 16 µM |
| O=C1C=CC(=O)N1c1ccc(N2CCCCC2)cc1 | H37Ra |  |  | MIC |  | ≤20 µg/mL |
| Cl.Cl.N=C(N)c1ccc2oc3ccc(C(=N)N)cc3c(=O)c2c1 | H37Rv |  | BACTEC | MIC bound |  | >12.5 µg/mL |
| CC(C)[C@@H]1CCN(c2cc(Nc3ccccn3)nc(-c3ccccc3)n2)C1 | H37Rv |  | resazurin | MIC90 |  | 32 µM |
| O=C1Nc2ccccc2[C@]12N1CSC[C@H]1[C@H](c1ccc([N+](=O)[O-])cc1)[C@]21Cc2ccccc2C1=O | H37Rv |  | agar | MIC99 |  | 12.9 µM |
| CCCCCCCCCN1C(=O)CC(SCCNC(=O)c2ccc(CCCC)cc2)C1=O | H37Rv |  |  | MIC |  | ≤20 µg/mL |
| CC(=N/O)/C(C)=N\O | H37Rv |  | BACTEC | MIC bound |  | >12.5 µg/mL |
| COCC1=C(C(=O)O)N2C(=O)C(NC(=O)/C(=N/OC)c3csc(N)n3)C2SC1 | H37Rv |  | resazurin | MIC |  | >128 µg/mL |
| c1cc2c[n+](c1)CCCCCCCCCCCCc1ccc[n+](c1)CCCCCCCCCC2 | H37Rv |  |  | MIC |  | 8 µg/mL |
| OC[C@H](O)COCn1ncc2c(NCc3ccccc3)ncnc21 | H37Rv |  | BACTEC | inhibition | 12.5 µg/mL | 0% |
| COc1cc(C2SCC(=O)N2NC(=O)COc2ccc(NC(C)=O)cc2)cc(OC)c1OC | H37Rv |  |  | EC50 |  | >12.5 µg/mL |
| Cc1ccccc1[C@H]1[C@@H]2CSCN2[C@@]2(C(=O)Nc3ccccc32)[C@@]12Cc1ccccc1C2=O | H37Rv |  | agar | MIC99 |  | 55.2 µM |
| O=c1oc2ccccc2c(O)c1C(C/C(=N/O)c1ccccc1)c1ccccc1 | H37Rv |  | BACTEC | MIC bound |  | >12.5 µg/mL |
| c1cc2c[n+](c1)CCCCCCCCCCCCCc1ccc[n+](c1)CCCCCCCCCC2 | H37Rv |  |  | MIC |  | 8 µg/mL |
| CCn1cc(C(=O)O)c(=O)c2cc(F)c(N3CCN(CC(=O)OC[C@H]4O[C@@H](n5cc(C)c(=O)[nH]c5=O)C[C@@H]4N=[N+]=[N-])CC3)cc21 | H37Rv (ATCC 27294) |  | BACTEC | EC50 |  | 99 µg/mL |
| CC(=O)Oc1c(C)c(OC(C)=O)c2c(c1C(C)=O)OC1CC(=O)C(C(C)=O)=C(O)C21C | H37Rv |  | BACTEC | MIC |  | ≥12.5 µg/mL |
| CCSc1ncnc2c1cnn2COC[C@@H](O)CO | H37Rv |  | BACTEC | inhibition | 12.5 µg/mL | 0% |
| Cc1c(CN2CCN(C)CC2)cc(-c2ccccc2)n1-c1ccccc1Cl |  |  |  | MIC |  | >16 µg/mL |
| CC1(C)S[C@@H]2[C@H](NC(=O)Cc3ccccc3)C(=O)N2[C@H]1C(=O)O | H37Rv |  | resazurin | MIC |  | 256 µg/mL |
| Cc1c(CN2CCSCC2)cc(-c2ccc(F)cc2)n1-c1ccccc1Cl |  |  |  | MIC |  | 4 µg/mL |
| NC1=NNC2(C(=O)N1)c1ccccc1-c1ccccc12 | H37Rv | VERO |  | MIC |  | 6.25 µg/mL |
| COc1ccc2c(c1)[n+]([O-])c(C#N)c(N)[n+]2[O-] | H37Rv |  |  | EC50 |  | <6.25 µg/mL |
| OC[C@@H](O)COCn1nncc1Cn1ncc2c(Sc3ccccc3)ncnc21 | H37Rv |  | BACTEC | EC50 |  | >12.5 µg/mL |
| CCOC(=O)C(NC(=O)CC)(N1CCN(c2cc3c(cc2F)c(=O)c(C(=O)O)cn3C2CC2)CC1)C(F)(F)F | H37Rv |  | resazurin | MIC bound |  | <6.25 µg/mL |
| CC1(C)S[C@@H]2[C@H](NC(=O)[C@H](N)c3ccc(O)cc3)C(=O)N2[C@H]1C(=O)O | H37Rv |  | resazurin | MBC |  | 64 µg/mL |
| CCCCCCCCCN1C(=O)CC(SCCNC(=O)C2CCCC2)C1=O | Clinical isolate (isoniazid-resistant) |  |  | MIC |  | ≤20 µg/mL |
| Cc1cn([C@H]2C[C@H](N=[N+]=[N-])[C@@H](COC(=O)CNC(=O)c3cnccn3)O2)c(=O)[nH]c1=O | H37Rv (ATCC 27294) |  | BACTEC | EC50 |  | 90 µg/mL |
| Cc1c(CN2CCN(C)CC2)cc(-c2ccccc2)n1-c1cccc2ccccc12 |  |  |  | MIC |  | >16 µg/mL |
| CCCCCCN1C(=O)C=CC1=O | Clinical isolate (isoniazid-resistant) |  |  | MIC |  | ≤20 µg/mL |
| COc1ncnc2c1cnn2Cc1cn(COC[C@@H](O)CO)nn1 | H37Rv |  | BACTEC | inhibition | 12.5 µg/mL | 0% |
| CN(C)[C@@H]1CCN(c2cc(Nc3cc(C(F)(F)F)c(Br)cn3)nc(-c3ccccc3)n2)C1 | H37Rv |  |  | MIC99 |  | >20 µM |
| CC(=O)OC(C)(C)/C=C/C(=O)C(C)(O)C1C(O)CC2(C)C3CC=C4C(CC(O)C(=O)C4(C)C)C3(C)C(=O)CC12C | H37Rv |  | BACTEC | MIC bound |  | >12.8 µg/mL |
| CC(=O)Nc1ccc(OCC(=O)N/N=C/c2ccc(Cl)cc2)cc1 | H37Rv |  |  | EC50 |  | >12.5 µg/mL |
| COc1cccc2c1C(=O)c1c(O)c3c(c(O)c1C2=O)C[C@@](O)(C(=O)CO)C[C@@H]3OC1CC(N2CCOCC2)C(O)[C@H](C)O1 | H37Rv |  | resazurin | inhibition | 6.25 µg/mL | 30% |
| CCCCCCCCCN1C(=O)CCC1=O | H37Rv |  |  | MIC |  | ≤20 µg/mL |
| Cc1c(N2COCC2(C)C)c([N+](=O)[O-])cc2c(=O)c(C(=O)O)cn(-c3ccc(F)cc3F)c12 | H37Rv |  |  | MIC |  | 6.81 µM |
| CCCCCCCCNC1CC(=O)N(CCCCCCCC)C1=O | Clinical isolate (isoniazid-resistant) |  |  | MIC |  | ≤20 µg/mL |
| CC(=O)Nc1ccc(/C=C2\SC(=S)N(/C=C3\C(=O)N(c4ccccc4)N=C3C)C2=O)cc1 | H37Rv |  | resazurin | MIC bound |  | >6.25 µg/mL |
| Cc1cc2nc(C#N)c(N3CCN(c4ccc([N+](=O)[O-])cc4)CC3)nc2cc1C | H37Rv |  |  | EC50 |  | >6.25 µg/mL |
| CC(=O)Nc1ccc(OCC(=O)N/N=C/c2ccccc2)cc1 | H37Rv |  |  | inhibition | 12.5 µg/mL | 17% |
| Cc1c(CN2CCSCC2)cc(-c2ccc(F)cc2)n1-c1ccc(Cl)cc1 |  |  |  | MIC |  | 2 µg/mL |
| CCOc1ccc2nc(N=NC(C(C)=O)C(C)=O)sc2c1 | H37Rv |  | resazurin | MIC bound |  | >6.25 µg/mL |
| COc1ccc2nc(Cl)c(C#N)nc2c1 | H37Rv |  |  | EC50 |  | >6.25 µg/mL |
| Cc1cc2c(cc1C)[n+]([O-])c1c(=O)[nH]c(=O)nc-1n2CC(O)C(O)C(O)CO | H37Rv |  | BACTEC | MIC bound |  | >12.5 µg/mL |
| COc1ccc([C@H]2[C@@H]3CSCN3[C@@]3(C(=O)Nc4ccc(Cl)cc43)[C@@]23Cc2ccccc2C3=O)cc1 | H37Rv |  | agar | MIC99 |  | 49.7 µM |
| c1ccc(-c2nc(Nc3cc(C4CC4)[nH]n3)cc(OCCN3CCCC3)n2)cc1 | H37Rv |  | resazurin | MIC90 |  | 32 µM |
| CO[C@@H]1C[C@@H](C[C@H]2CC[C@H](C)[C@H]([C@@H](C)C(=O)O)O2)O[C@]2(O[C@](C)([C@H]3CC[C@@](C)([C@@H]4O[C@@H]([C@H]5O[C@@](O)(CO)[C@H](C)C[C@@H]5C)C[C@@H]4C)O3)C[C@H]2C)[C@@H]1C | H37Rv | VERO | resazurin | MIC |  | 3.13 µg/mL |
| CCCCCCCCCN1C(=O)CC(SCCNC(=O)C2CC2)C1=O | H37Rv |  |  | MIC |  | ≤20 µg/mL |
| N#Cc1c(Cl)n([O-])c2ccc(-c3ccc([N+](=O)[O-])cc3)cc2[n+]1=O | H37Rv |  |  | inhibition | 6.25 µg/mL | 94% |
| O=C1Nc2ccc(Cl)cc2[C@]12N1CSC[C@H]1[C@H](c1ccc(Cl)cc1)[C@]21Cc2ccccc2C1=O | H37Rv |  | agar | MIC99 |  | 24.6 µM |
| CC[C@H]1OC(=O)[C@H](C)[C@@H](OC2C[C@@](C)(O)C(O)[C@H](C)O2)[C@H](C)[C@@H](OC2OC(C)C[C@H](N(C)C)C2O)[C@](C)(OC2CC(N(C)C)C(O)C(C)O2)C[C@@H](C)C(=O)[C@H](C)[C@@H](O)[C@]1(C)O | H37Rv |  | resazurin | MIC |  | >128 µg/mL |
| CN1CCN(c2ccc(Nc3ncc(Br)c(NCC(C)(C)CNC(=O)C4CCC4)n3)cn2)CC1 | H37Rv |  |  | MIC99 |  | 20 µM |
| Cc1c(N2CCC(N3CCCCC3)CC2)c([N+](=O)[O-])cc2c(=O)c(C(=O)O)cn(C3CC3)c12 | H37Rv |  |  | MIC |  | 6.89 µM |
| CCCCN(CCO)CCNc1ccc(C)c2sc3ccccc3c(=O)c12 | H37Rv |  | BACTEC | inhibition | 12.5 µg/mL | 100% |
| Nc1nc(COC(=O)c2cccc([N+](=O)[O-])c2Cl)cs1 | H37Rv |  |  | MIC |  | 1.25 µg/mL |
| CN(C)[C@H]1C(=O)C(C(N)=O)=C(O)[C@@]2(O)C(=O)C3C(=O)c4c(O)ccc(Cl)c4[C@@](C)(O)[C@@H]3C[C@H]12 | H37Rv |  | BACTEC | inhibition | 12.5 µg/mL | 97% |
| Cc1c(CN2CCN(C)CC2)cc(-c2ccccc2F)n1-c1ccccc1F |  |  |  | MIC |  | 8 µg/mL |
| [N-]=[N+]=NC1=NNC2(C(=O)N1)c1ccccc1-c1ccccc12 | H37Rv |  | BACTEC | MIC bound |  | >12.5 µg/mL |
| O=C(Cc1cccs1)N[C@@H]1C(=O)N2C(C(=O)[O-])=C(C[n+]3ccccc3)CS[C@H]12 | H37Rv |  | resazurin | MIC |  | 4 µg/mL |
| O=C(CCC(=O)Nc1ccc2[nH]c3ccccc3c(=O)c2c1)Nc1ccc2[nH]c3ccccc3c(=O)c2c1 | H37Rv |  | BACTEC | inhibition | 12.5 µg/mL | 19% |
| O=C1Nc2ccc([N+](=O)[O-])cc2[C@]12N1CSC[C@H]1[C@H](c1ccc(Cl)cc1)[C@]21Cc2ccccc2C1=O | H37Rv |  | agar | MIC99 |  | 24.1 µM |
| c1cc2c[n+](c1)CCCCCCCCCCCCCc1ccc[n+](c1)CCCCCCCCCCCC2 | H37Rv |  |  | MIC |  | 8 µg/mL |
| CO/C(=N\N=C\c1ccc(OC)cc1OC)c1ccncc1 |  |  | BACTEC | inhibition | 0.5 µM | 0% |
| C=C1CC(=O)N(CCCCCCCC)C1=O | H37Ra |  |  | MIC |  | ≤20 µg/mL |
| CCc1ccc(C(=O)N/N=C(\C)[C@]2(O)Cc3c(O)c4c(c(O)c3[C@H](O[C@H]3C[C@H](N)[C@H](O)[C@H](C)O3)C2)C(=O)c2c(OC)cccc2C4=O)cc1 | EMB-R |  |  | MIC |  | >12.5 µg/mL |
| O=C1Nc2ccccc2[C@]12N1CSC[C@H]1[C@H](c1ccc(Cl)cc1)[C@]21Cc2ccccc2C1=O | H37Rv |  | agar | MIC99 |  | 52.9 µM |
| CNc1ncnc2c1cnn2Cc1cn(COC[C@@H](O)CO)nn1 | H37Rv |  | BACTEC | EC50 |  | >12.5 µg/mL |
| NCCC[C@H](N)CC(=O)N[C@H]1CNC(=O)[C@H]([C@H]2C[C@H](O)NC(N)=N2)NC(=O)/C(=C/NC(N)=O)NC(=O)[C@H](CO)NC(=O)[C@H](CO)NC1=O | Isolate CKN-301 (rrs A1401G mutation) |  |  | MIC |  | >80 µg/mL |
| COc1ccc(-c2nc(C)nc3c2Cc2c(ccc4ccccc24)O3)cc1 | H37Rv |  | BACTEC | inhibition | 12.5 µg/mL | 6% |
| Cc1c(CN2CCSCC2)cc(-c2cccc3ccccc23)n1-c1ccccc1 |  |  |  | MIC |  | >16 µg/mL |
| Cc1c(N2CCc3ccccc3C2C(=O)NC(C)(C)C)c([N+](=O)[O-])cc2c(=O)c(C(=O)O)cn(C(C)(C)C)c12 | H37Rv |  |  | MIC |  | 23.38 µM |
| c1ccc(-c2nc(NCCc3cnc[nH]3)cc(Nc3cc(C4CC4)[nH]n3)n2)cc1 | H37Rv |  | resazurin | MIC90 |  | 125 µM |
| c1cc2c[n+](c1)CCCCCCCCCCCCCCc1ccc[n+](c1)CCCCCCCCCCCCC2 | H37Rv |  |  | MIC |  | 8 µg/mL |
| CC(=O)n1cc(/C=C2/N=C(c3cccc(Cl)c3)OC2=O)c2ccccc21 | H37Rv |  | BACTEC | MIC bound |  | >12.5 µg/mL |
| Cc1c(CN2CCN(C)CC2)cc(-c2ccccc2Cl)n1-c1cccc2ccccc12 |  |  |  | MIC |  | 4 µg/mL |
| O=C1Nc2ccc(Cl)cc2[C@]12N1CSC[C@H]1[C@H](c1ccc(F)cc1)[C@]21Cc2ccccc2C1=O | H37Rv |  | agar | MIC99 |  | 12.7 µM |
| Cc1c(N2CCc3ccccc3C2C(=O)NC(C)(C)C)c([N+](=O)[O-])cc2c(=O)c(C(=O)O)cn(-c3ccc(F)cc3F)c12 | H37Rv |  |  | MIC |  | 84.66 µM |
| COc1ncnc2c1cnn2COC[C@@H](O)CO | H37Rv |  | BACTEC | inhibition | 12.5 µg/mL | 0% |
| COc1cc(C2SC(C)C(=O)N2NC(=O)COc2ccc(NC(C)=O)cc2)ccc1O | H37Rv |  |  | inhibition | 12.5 µg/mL | 24% |
| Cc1c(N2CCC3(CC2)OCCO3)c([N+](=O)[O-])cc2c(=O)c(C(=O)O)cn(C3CC3)c12 | H37Rv |  |  | MIC |  | 1.82 µM |

Rows are shuffled and stem from different studies. Inhibition is in % at the dose shown (toxicity tests: loss of growth or viability). MIC bound comes from a single tested concentration. MIC50, MIC90 and the like: level of inhibition, or share of isolates inhibited. An empty or dashed field is not shown.